According to patent publication US20200239529A1:

Target: CXCR4, human, P61073 1-352
Assay: cell-based or functional assay

## T22-mRTA-H6
  IC50 of cytotoxicity on CXCR4+ HeLa cells after 72 h: 13 nM
